Measured values from several laboratories, pooled; numbers as filed in NIAID ChemDB.

Shared fields: growth or infection tests

Blank or dashed fields: not listed here.

smiles | dose | method | strain | endpoint | setting | species | result
CCOc1ccc2nc3cc(N=C4NC(=O)/C(=C\C=C\c5ccc([N+](=O)[O-])o5)S4)ccc3c(N)c2c1 |  | broth dilution | ATCC 8614 | MIC |  | Candida kefyr | 666 µg/mL
C[C@@H](c1ncncc1F)[C@](O)(Cn1cncn1)c1ccc(F)cc1F |  | broth dilution |  | MIC50 |  | Candida lusitaniae | 0.008 µg/mL
O=C(CCn1ccnc1)c1cccc(C(O)c2ccc(Cl)c(Cl)c2)c1 |  | broth dilution | RTCC 1074 | MIC |  | Candida kefyr | 16 µg/mL
O=C(c1ccccc1)C(c1ccccc1)n1cnc2ccccc21 |  | agar |  | MIC90 |  | Candida dubliniensis | 32 µg/mL
CCCCCOc1ccc(-c2ccc(-c3ccc(C(=O)N[C@H]4C[C@@H](O)[C@@H](O)NC(=O)[C@@H]5[C@@H](O)[C@@H](C)CN5C(=O)[C@H]([C@H](C)O)NC(=O)[C@H]([C@H](O)[C@@H](O)c5ccc(O)cc5)NC(=O)[C@@H]5C[C@@H](O)CN5C(=O)[C@H]([C@H](C)O)NC4=O)cc3)cc2)cc1 |  |  |  | MIC50 |  | Candida guilliermondii | 0.06–4 µg/mL
C=CCc1ccc(OC)c(OC)c1 |  | turbidity | 3177 | MIC90 |  | Candida tropicalis | 345 µg/mL
O=C(CCn1ccnc1)c1ccc(Br)cc1 |  | broth dilution | RTCC 1019 | MIC |  | Candida kefyr | 4 µg/mL
COc1cc2oc3cc(O)cc(O)c3c(=O)c2c2c1OC(C)(C)C=C2 |  | broth dilution |  | MIC100 |  | Candida spp. | >64 µg/mL
Clc1ccc(C(c2ccccc2)N2CCN(CCn3ccnc3)CC2)cc1 |  | agar |  | MIC90 |  | Candida parapsilosis | >256 µg/mL
CC(C)(O)c1cn(-c2cccc3ccccc23)nn1 | 2048 µg/mL |  | URM 1150 | inhibition |  | Candida tropicalis | 0%
C[C@H]1[C@H](O)[C@@H](C)/C=C/C=C/C=C/C=C/C=C/C=C/C=C/[C@H](O[C@@H]2O[C@H](C)[C@@H](O)[C@H](N)[C@@H]2O)C[C@@H]2O[C@](O)(C[C@@H](O)C[C@@H](O)CC[C@H](O)[C@@H](O)C[C@@H](O)CC(=O)O[C@H]1C)C[C@H](O)[C@H]2C(=O)O |  | broth dilution |  | MIC100 |  | Candida spp. | 2.68 µg/mL
O=C(NN=Cc1ccco1)c1snnc1C(F)(F)F | 150 µg/mL | agar diffusion / agar | NCIM 3462 | zone |  | Candida rugosa | 0 mm
COc1ccc(/C=N\O)cc1 |  | broth dilution |  | MIC100 |  | Candida famata | 6620 µM
CC[C@@H]([C@H](C)O)n1ncn(-c2ccc(N3CCN(c4ccc(OC[C@@H]5CO[C@@](Cn6cncn6)(c6ccc(F)cc6F)C5)cc4)CC3)cc2)c1=O |  | broth dilution | 40 isolates | MIC | pH 5 | Candida glabrata | 2 µg/mL
O/N=C\c1ccc(O)cc1 |  | broth dilution |  | MFC |  | Candida famata | >7290 µM
CC(C)(O)c1cn(-c2ccccc2)nn1 | 2048 µg/mL | broth dilution | URM 4970 | inhibition |  | Candida parapsilosis | 0%
CC(=O)N1CCN(c2ccc(OC[C@H]3CO[C@](Cn4ccnc4)(c4ccc(Cl)cc4Cl)O3)cc2)CC1 |  | broth dilution | 40 isolates | MIC | pH 4 | Candida glabrata | >16 µg/mL
Clc1ccc(C(c2ccccc2)n2cnc3ccccc32)cc1 |  | agar |  | MIC90 |  | Candida dubliniensis | 128 µg/mL
O=C(CCn1ccnc1)c1cccc(C(O)c2ccc(Cl)cc2)c1 |  | broth dilution | RTCC 1377 | MIC |  | Candida guilliermondii | 8 µg/mL
O/N=C/c1ccc(O)cc1 |  |  |  | MIC100 |  | Candida famata | >7290 µM
CC(=O)OC[C@H]1O[C@@H](O[C@@H]2[C@@H](N=[N+]=[N-])[C@H](O)[C@H](O)[C@H]3OC(C)(C)O[C@H]32)[C@H](OC(C)=O)[C@@H](OC(C)=O)[C@H]1OC(C)=O | 250 µg/mL | broth dilution / turbidity | C 131 | inhibition |  | Candida tropicalis | 20.16%
CC[C@@H]([C@H](C)O)n1ncn(-c2ccc(N3CCN(c4ccc(OC[C@@H]5CO[C@@](Cn6cncn6)(c6ccc(F)cc6F)C5)cc4)CC3)cc2)c1=O |  | broth dilution | 8653 | MIC |  | Candida glabrata | 0.5 µg/mL
CC(C)(O)c1cn(-c2ccc([N+](=O)[O-])cc2)nn1 | 2048 µg/mL | broth dilution | URM 933 | inhibition |  | Candida tropicalis | 0%
O=C(NN=Cc1cccs1)c1snnc1C(F)(F)F | 150 µg/mL | agar diffusion / agar | NCIM 3462 | zone |  | Candida rugosa | 0 mm
CC(C)(O)c1cn(-c2ccc3ccccc3c2)nn1 | 2048 µg/mL | broth dilution | URM 4606 | inhibition |  | Candida albicans | 0%
O/N=C\c1cccs1 |  |  |  | MIC100 |  | Candida lipolytica | 3930 µM
C[C@@H]1CC(=O)N(c2ccccc2)C1=O |  | broth dilution / turbidity | CCC 134-2000 | MIC |  | Candida lusitaniae | 62.5 µg/mL
C[C@@H](c1ncncc1F)[C@](O)(Cn1cncn1)c1ccc(F)cc1F |  |  |  | MIC50 |  | Candida dubliniensis | 0.008–0.03 µg/mL
CC1CC(=O)N(c2ccc(Br)cc2)C1=O |  | broth dilution / turbidity | CCC 134-2000 | MIC |  | Candida lusitaniae | 250 µg/mL
O=C(CCn1ccnc1)c1cccc2ccccc12 |  | broth dilution | RTCC 1074 | MIC |  | Candida kefyr | 64 µg/mL
O=C(NN=C1CCCCCC1)c1snnc1C(F)(F)F | 150 µg/mL | agar diffusion / agar | NCIM 3462 | zone |  | Candida rugosa | 0 mm
COC(=O)[C@H]1[C@@H]2C[C@@H](O[C@@H]3O[C@H](C)[C@@H](O)[C@H](N)[C@@H]3O)/C=C/C=C/C=C/C=C/C=C/C=C/C=C/[C@H](C)[C@@H](O)[C@H](C)[C@H](C)OC(=O)C[C@H](O)C[C@H](O)[C@@H](O)CC[C@H](O)C[C@H](O)C[C@](O)(C[C@@H]1O)O2 |  | broth dilution | 40 isolates | EC90 | pH 5 | Candida glabrata | 1 µg/mL
c1ccc(C(c2ccccc2)n2ccnc2)cc1 |  | broth dilution |  | MFC |  | Candida parapsilosis | 16 µg/mL
COc1c(O)ccc2c(=O)c3c(O)cc4c(c3oc12)C(C)(C)C(C)O4 |  | broth dilution |  | MIC |  | Candida spp. | >64 µg/mL
O=[N+]([O-])c1ccc(/C=N\O)cc1 |  |  |  | MIC |  | Candida lipolytica | 3010 µM
O=C(NN=Cc1ccc([N+](=O)[O-])cc1)c1snnc1C(F)(F)F | 150 µg/mL | agar diffusion / agar | NCIM 3462 | zone |  | Candida rugosa | 0 mm
COC(=O)c1ccc(C[C@H](C(=O)OC)[C@@H](O)C(=O)OC)cc1 |  |  | SC5314 | MIC |  | Candida lusitaniae | 1 µg/mL
CC1CC(=O)N(CCCCc2ccccc2)C1=O |  | broth dilution / turbidity | CCC 134-2000 | MIC |  | Candida lusitaniae | 125 µg/mL
CC1CC2=C(O1)c1ccccc1C(=O)C2=O |  | broth dilution | Clinical isolate | MIC |  | Candida tropicalis | 37.3 µg/mL
O=C1S/C(=C\c2ccoc2)C(=O)N1CC(O)(Cn1nccn1)c1ccc(F)cc1F |  |  | Fluconazole-resistant 103 | MIC50 |  | Candida colliculosa | 18.5 µg/mL
C=CC(C)(C)c1cc(C2CC(=O)c3c(cc(O)c(CC=C(C)C)c3O)O2)c(O)cc1O | 2 mg/mL | agar diffusion / agar | hemoculture isolate 15760 | zone |  | Candida parapsilosis | 12 mm
CCC(C)CC(C)CCCCCCCCC(=O)N[C@H]1C[C@@H](O)[C@H](NCCN)NC(=O)[C@@H]2[C@@H](O)CCN2C(=O)[C@H]([C@H](O)CCN)NC(=O)[C@H]([C@H](O)[C@@H](O)c2ccc(O)cc2)NC(=O)[C@@H]2C[C@@H](O)CN2C(=O)[C@H]([C@@H](C)O)NC1=O |  | broth dilution | 40 isolates | EC90 | pH 4 | Candida glabrata | 0.5 µg/mL
COc1ccc(N2C(=O)C[C@@H](C)C2=O)cc1 |  | broth dilution / turbidity | CCC 134-2000 | MIC |  | Candida lusitaniae | 62.5 µg/mL
c1ccc(C(c2ccccc2)n2cncn2)cc1 |  | broth dilution |  | MFC |  | Candida parapsilosis | 128 µg/mL
O/N=C\c1ccccc1O |  |  |  | MIC |  | Candida famata | 1800 µM
CCC(C)CC(C)CCCCCCCCC(=O)N[C@H]1C[C@@H](O)[C@H](NCCN)NC(=O)[C@@H]2[C@@H](O)CCN2C(=O)[C@H]([C@H](O)CCN)NC(=O)[C@H]([C@H](O)[C@@H](O)c2ccc(O)cc2)NC(=O)[C@@H]2C[C@@H](O)CN2C(=O)[C@H]([C@@H](C)O)NC1=O |  | broth dilution |  | MIC50 |  | Candida glabrata | 0.25 µg/mL
N=c1oc2ccccc2c2csc(N)c12 |  | broth dilution |  | MIC |  | Candida guilliermondii | >256 µg/mL
NCCCC[C@H](NC(=O)[C@@H](N)CCCCN)C(=O)N[C@@H](CCC(N)=O)C(=O)N[C@@H](CCCN=C(N)N)C(=O)O | 12.5 µM |  | ATCC 10231 | inhibition |  | Candida albicans | 0%

Again, the opening 4 rows:

CCOc1ccc2nc3cc(N=C4NC(=O)/C(=C\C=C\c5ccc([N+](=O)[O-])o5)S4)ccc3c(N)c2c1 ; method: broth dilution ; strain: ATCC 8614 ; endpoint: MIC ; species: Candida kefyr ; result: 666 µg/mL
C[C@@H](c1ncncc1F)[C@](O)(Cn1cncn1)c1ccc(F)cc1F ; method: broth dilution ; endpoint: MIC50 ; species: Candida lusitaniae ; result: 0.008 µg/mL
O=C(CCn1ccnc1)c1cccc(C(O)c2ccc(Cl)c(Cl)c2)c1 ; method: broth dilution ; strain: RTCC 1074 ; endpoint: MIC ; species: Candida kefyr ; result: 16 µg/mL
O=C(c1ccccc1)C(c1ccccc1)n1cnc2ccccc21 ; method: agar ; endpoint: MIC90 ; species: Candida dubliniensis ; result: 32 µg/mL

A number after MIC or MFC names an inhibition level or a share of isolates. Two numbers with a dash give a range or band. Zone: diameter of growth inhibition. Conditions beyond the fields shown may differ between rows. Percent inhibition refers to the dose given; in toxicity tests it is the harm to the cells. ECn is the concentration giving n% inhibition of infection, replication or growth.